# HIV-1 5' UTR: effect of mutations on RNA dimer formation

Sequence of the HIV-1 NL4-3 5' RNA, positions 1 to 437, as numbered in the source:
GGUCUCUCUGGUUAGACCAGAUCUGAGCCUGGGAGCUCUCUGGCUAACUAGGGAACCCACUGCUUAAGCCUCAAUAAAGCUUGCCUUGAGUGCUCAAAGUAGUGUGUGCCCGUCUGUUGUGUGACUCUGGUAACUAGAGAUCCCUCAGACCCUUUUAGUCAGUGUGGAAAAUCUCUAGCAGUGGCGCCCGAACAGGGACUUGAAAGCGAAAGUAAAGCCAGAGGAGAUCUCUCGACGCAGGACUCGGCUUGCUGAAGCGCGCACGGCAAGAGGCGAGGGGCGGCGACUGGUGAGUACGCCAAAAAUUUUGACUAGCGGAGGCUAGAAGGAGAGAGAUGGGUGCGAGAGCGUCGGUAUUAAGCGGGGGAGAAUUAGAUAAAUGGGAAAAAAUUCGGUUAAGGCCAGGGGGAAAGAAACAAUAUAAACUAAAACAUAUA

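Randomly mutated transcripts starting with one, two or three G (1G, 2G, 3G), capped or uncapped, were folded for 30 min at 37 °C. Monomer and dimer bands were cut from native gels after folding in high salt (300 mM KCl, 5 mM MgCl2) or low salt (40 mM KCl, 0.1 mM MgCl2). Kdimer compares mutation frequencies in monomer and dimer, corrected for sequencing errors.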

Scale: median log2 Kdimer over the changes at a position; positive = changes inhibit dimerization, negative = changes enhance it.
One numbering serves 1G, 2G and 3G.
A position is written with its base where known.
The source gives no letters past position 437.

A424 gave 2G capped low-salt 0.00; 1G uncapped low-salt 0.09.
A425 gave 2G capped low-salt -0.03; 1G uncapped low-salt 0.06.
C426 gave 2G capped low-salt -0.11; 1G uncapped low-salt 0.08.
U427 gave 2G capped low-salt -0.01; 1G uncapped low-salt -0.03.
A428 gave 2G capped low-salt 0.14; 1G uncapped low-salt 0.12.
A429 gave 2G capped low-salt 0.01; 1G uncapped low-salt 0.00.
A430 gave 2G capped low-salt 0.02; 1G uncapped low-salt 0.03.
A431 gave 2G capped low-salt -0.03; 1G uncapped low-salt -0.01.
C432 gave 2G capped low-salt 0.05; 1G uncapped low-salt 0.00.
A433 gave 2G capped low-salt 0.02; 1G uncapped low-salt 0.00.
U434 gave 2G capped low-salt -0.20; 1G uncapped low-salt 0.05.
A435 gave 2G capped low-salt -0.06; 1G uncapped low-salt 0.01.
U436 gave 2G capped low-salt -0.10; 1G uncapped low-salt -0.04.
A437 gave 2G capped low-salt 0.12; 1G uncapped low-salt -0.02.
position 438 gave 2G capped low-salt -0.01; 1G uncapped low-salt -0.02.
position 439 gave 2G capped low-salt 0.07; 1G uncapped low-salt -0.07.
position 440 gave 2G capped low-salt 0.08; 1G uncapped low-salt -0.04.
position 441 gave 2G capped low-salt -0.15; 1G uncapped low-salt -0.02.
position 442 gave 2G capped low-salt -0.02; 1G uncapped low-salt 0.09.
position 443 gave 2G capped low-salt 0.14; 1G uncapped low-salt 0.12.
position 444 gave 2G capped low-salt 0.10; 1G uncapped low-salt 0.08.
position 445 gave 2G capped low-salt 0.10; 1G uncapped low-salt 0.20.
position 446 gave 2G capped low-salt 0.09; 1G uncapped low-salt 0.12.
position 447 gave 2G capped low-salt -0.07; 1G uncapped low-salt 0.00.
position 448 gave 2G capped low-salt 0.06; 1G uncapped low-salt 0.03.
position 449 gave 2G capped low-salt 0.12; 1G uncapped low-salt -0.10.
position 450 gave 2G capped low-salt 0.00; 1G uncapped low-salt 0.04.
position 451 gave 2G capped low-salt 0.00; 1G uncapped low-salt 0.02.
position 452 gave 2G capped low-salt 0.03; 1G uncapped low-salt -0.06.
position 453 gave 2G capped low-salt -0.12; 1G uncapped low-salt 0.07.
position 454 gave 2G capped low-salt -0.11; 1G uncapped low-salt 0.09.
position 455 gave 2G capped low-salt -0.07; 1G uncapped low-salt 0.00.
position 456 gave 2G capped low-salt -0.08; 1G uncapped low-salt 0.12.
position 457 gave 2G capped low-salt 0.04; 1G uncapped low-salt 0.06.
position 458 gave 2G capped low-salt 0.10; 1G uncapped low-salt 0.00.
position 459 gave 2G capped low-salt -0.18; 1G uncapped low-salt 0.11.
position 460 gave 2G capped low-salt -0.10; 1G uncapped low-salt 0.04.

The first 4 entries again:

| position | 2G capped low-salt | 1G uncapped low-salt |
|---|---|---|
| A424 | 0.00 | 0.09 |
| A425 | -0.03 | 0.06 |
| C426 | -0.11 | 0.08 |
| U427 | -0.01 | -0.03 |

Values reported by Ye et al. 2022 (doi:10.1038/s41594-022-00746-2).